Compound potency records, mixed from different reports. Data source: NIAID ChemDB in PubChem.

All rows: growth or infection tests; organism: HIV-1; cells: CEM; endpoint: inhibition

Inhibition is in % at the dose shown (toxicity tests: loss of growth or viability). An empty or dashed field is not shown. Conditions beyond the fields shown may differ between rows.

structure | strain or isolate | method | conditions | dose | result
NCCSSCCN | IIIB | cytopathic effect / MTT | - | 100 µM | 100%
CC(C)(C)NC(=O)[C@@H]1CCCN1C(=O)[C@@H](O)[C@H](Cc1ccccc1)NC(=O)[C@H](CC(N)=O)NC(=O)c1cnc2ccccc2n1 | IIIB | p24 | - | 0.5 µM | 61%
O=CO[C@H]1C[C@H](n2ccc(=O)[nH]c2=O)O[C@@H]1CO | - | cytopathic effect | - | 100 µM | 15%
Nc1ncn([C@H]2C[C@H](O)[C@@H](CO)O2)c(=O)n1 | I-232 | antigen | - | 1 µM | 95%
Nc1nc(Br)nc2c1ncn2[C@H]1CC[C@@H](CO)O1 | LAV | p24 | - | 10 µM | 90%
CC(=O)N[C@@H](CS)C(=O)O | IIIB | cytopathic effect / MTT | - | 100 µM | 6%
Cc1cn([C@H]2C[C@H](N=[N+]=[N-])[C@@H](COP(=O)(O)OC[C@H]3OC(O)[C@H](O)[C@@H](O)[C@@H]3O)O2)c(=O)[nH]c1=O | LAV-Bru | RT activity | 15 d | 0.2 µM | 96%
Nc1ncnc2c1ncn2[C@H]1CC[C@@H](CO)O1 | LAV | p24 | - | 10 µM | 90%
Nc1ccn([C@H]2CC[C@@H](CO)O2)c(=O)n1 | LAV-1 | virus yield | - | 0.01 µM | >100%
Cc1cn([C@H]2C[C@H](N=[N+]=[N-])[C@@H](CO)O2)c(=O)[nH]c1=O | LAV-Bru | RT activity | 22 d | 0.2 µM | 0%
CC(C)(S)[C@@H](N)C(=O)O | IIIB | cytopathic effect / MTT | - | 100 µM | 29.3%
CCN(CCO)CCCC(C)Nc1ccnc2cc(Cl)ccc12 | IIIB | RT activity | - | 1000 µg/mL | 80%
Cc1cc(SC2=C(O)CC(CCc3ccc(O)cc3)(C(C)C)OC2=O)c(C(C)(C)C)cc1CO | IIIB | cytopathic effect / MTT | - | 1 µM | 90%
COC(=O)[C@H](C)NP(=O)(OC[C@@H]1O[C@H](n2ccc(N)nc2=O)CS1)Oc1ccccc1 | IIIB | cytopathic effect | 7 d | 10 µM | 100%
Cc1cn([C@H]2C[C@H](N=[N+]=[N-])[C@@H](CCP(O[Si](C)(C)C)O[Si](C)(C)C)O2)c(=O)[nH]c1=O | IIIB | syncytia | - | 400 µM | 0%
Cc1cc(SC2=C(O)CC(CCc3ccc(N)cc3)(C(C)C)OC2=O)c(C(C)(C)C)cc1CO | IIIB | cytopathic effect / MTT | - | 1 µM | 90%

A second listing of 2 rows from above:

structure,strain or isolate,method,conditions,dose,result
NCCSSCCN,IIIB,cytopathic effect / MTT,-,100 µM,100%
CCN(CCO)CCCC(C)Nc1ccnc2cc(Cl)ccc12,IIIB,RT activity,-,1000 µg/mL,80%